Pooled drug test results. Numbers come from NIAID ChemDB, via PubChem.

All rows: tests in culture; agent: HIV-1; measure: inhibition

An empty or dashed field is not shown. Percent inhibition refers to the dose given; in toxicity tests it is the harm to the cells. Lines come from different laboratories, so protocols vary.

structure	setting	changes	cell line	method	dose	strain	result
COc1cc(NC(C)CCCNCc2cc(Nc3ccnc4cc(Cl)ccc34)cc(CN3CCCC3)c2O)c2ncccc2c1	-	-	MT-2	p24	1.36 µM	-	0%
COc1ccc(OC)c2c(C(=O)C(=O)N3CCN(C(=O)c4ccc(Br)o4)C[C@H]3C)c[nH]c12	-	-	HeLa + HELA CD4+/CCR5	luciferase	10 µM	-	>98%
O=S(=O)(O)c1c2ccccc2c(-c2c3nc(c(-c4c5ccccc5c(S(=O)(=O)O)c5ccccc45)c4ccc([nH]4)c(-c4c5ccccc5c(S(=O)(=O)O)c5ccccc45)c4nc(c(-c5c6ccccc6c(S(=O)(=O)O)c6ccccc56)c5ccc2[nH]5)C=C4)C=C3)c2ccccc12	-	-	-	-	50 µg/mL	89.6	90%
[N-]=[N+]=NCCCCCCCCCCCC(=O)O	-	-	CEM	cytopathic effect	4 µM	RF	82%
COc1ccc(/C=N/N=C(\N)NO)cc1O.Cc1ccc(S(=O)(=O)O)cc1	-	-	CEM	cytopathic effect	32 µg/mL	IIIB	62%
CCn1c(C)c(C(=O)OC)c(C(=O)OC)c1Cc1ccccc1	-	-	PBL	p24 / ELISA	10 µM	IIIB	100%
Nc1ncnc2c1ncn2[C@@H](C=O)O[C@@H](C=O)COP(=O)(O)OP(=O)(O)OP(=O)(O)O	-	-	Macrophage	p24 / antigen	100 µM	BaL	80%
CC1=C(CCC(=O)O)c2cc3nc(cc4[nH]c(cc4C)cc4[nH]c(cc1n2)cc4C)C(C)=C3CCC(=O)O	-	-	MT-4	cytopathic effect	10 µg/mL	LAV	97%
CC(=Nc1ccc(O)cc1)C1Sc2ncccc2C1=O	-	-	PBMC	RT activity	9.41 µM	NL4-3	90%
CNC(=O)c1cn2c(c1O)C(=O)N(Cc1ccc(Cl)c(Cl)c1)CC2	-	-	MT-4	p24 / ELISA	1.25 µM	IIIB	>95%
CC(=O)N1CCC(C(=O)N(CCCN2CCC(Cc3ccc(C(N)=O)cc3)CC2)c2ccc(C)c(Cl)c2)CC1	-	-	PBMC	p24	0.012 µM	HKW Clinical isolates	90%
O=c1[nH]c(=O)n([C@@H]2C[C@H](F)[C@@H](CO)O2)cc1CN1CCN(Cc2ccccc2)CC1	-	-	MT-4	ELISA	100 µM	IIIB	0%
O=C(C(=O)N1CCN(C(=O)c2ccc(-c3ccccn3)cc2S)CC1)c1c[nH]c2cccc(Cl)c12	-	-	HeLa + HELA CD4+/CCR5	luciferase	10 µM	-	86%
Nc1ncnc2c1ncn2C1OC(COP(=O)(O)OC2C(O)C(COP(=O)(O)OC3C(O)C(CO)OC3n3cnc4c(N)ncnc43)OC2n2cnc3c(N)ncnc32)C(F)C1N	-	-	SupT1 + Sup-T1	syncytia	300 µM	-	89%
CCC(O)[NH+]1CC[NH+](C(O)CC)CC1.[Cl][Pt-2]([Cl])([Cl])([Cl])([Cl])[Cl]	-	-	Jurkat cells	luciferase / β-galactosidase	3 µM	-	38%
C=Cc1c(C)c2cc3[nH+]c(c4c5[n-]c(cc6[nH+]c(cc1[n-]2)C(C)=C6CC)c(C)c5C(=O)C4C(=O)OC)[C@@H](CCC(=O)O/C=C(\C)CCCC(C)CCCC(C)CCCC(C)C)[C@@H]3C.[Mg+2]	-	-	MT-4	cytopathic effect	10 µg/mL	LAV	99%
Cc1c(C(=O)O)c(C(=O)c2ccccc2F)c(C)n1C	-	-	PBL	p24 / ELISA	10 µM	IIIB	8%
CO[C@H]1C[C@@H]2CC[C@@H](C)[C@@](O)(O2)C(=O)C(=O)N2CCCC[C@H]2C(=O)O[C@H]([C@H](C)C[C@@H]2CC[C@@H](O)[C@H](OC)C2)CC(=O)[C@H](C)/C=C(\C)[C@@H](O)[C@@H](OC)C(=O)[C@H](C)C[C@H](C)/C=C/C=C/C=C/1C	-	-	PBMC	p24	0.01 µM	IIIB X4	13.5%
CCCCCCCCCCCCCCCC(=O)NC1C(COP(=O)(O)OC2CC(COP(=O)(O)OC3C(O)C(CO)OC3n3cnc4c(N)ncnc43)OC2n2cnc3c(N)ncnc32)OC(n2cnc3c(N)ncnc32)C1O	-	-	-	p24	300 µM	-	100%
Cc1cn(C2CC3C(O)C(C)C3(N=[N+]=[N-])O2)c(=O)[nH]c1=O	-	-	H9	p24 / antigen	25 µM	IIIB	30%
CCCCCCCCCCCCCCO	-	-	H9	RT activity	10 µg/mL	IIIB	49%
O=C(Nc1ccc(Cl)cc1)Nc1ccc(Nc2ccnc3cc(Cl)ccc23)cc1	-	-	MT-2	p24	2.36 µM	-	40%
Cc1cn([C@H]2C[C@H](NC#N)[C@@H](CO)O2)c(=O)[nH]c1=O	-	-	CEM	cytopathic effect	100 µM	LAV	0%
Nc1ncnc2c1ncn2[C@@H]1O[C@H](COP(=O)(O)O[C@@H]2[C@H](O)[C@@H](COP(=O)(O)O[C@@H]3[C@H](O)[C@@H](CO)O[C@H]3n3cnc4c(N)ncnc43)O[C@H]2n2cnc3c(N)ncnc32)[C@@H](O)[C@H]1O	-	-	SupT1 + Sup-T1	syncytia	300 µM	-	75%
CCCCCCCCCCCCCCCCOCC(COC(=O)CCC(=O)OCC1CC(OP(=O)(O)OCC2CC(OP(=O)(O)OCC3CC(O)C(n4cnc5c(N)ncnc54)O3)C(n3cnc4c(N)ncnc43)O2)C(n2cnc3c(N)ncnc32)O1)OCCCCCCCCCCCCCCCC	-	-	SupT1 + Sup-T1	syncytia	300 µM	IIIB	96.7%
Nc1ccn([C@H]2C=C[C@@H](CO)O2)c(=O)n1	-	-	MT-2	RT activity	0.1 µM	LAV	66%
CCOC(=O)c1cc(-c2ccc(OC)cc2)n(-c2ccccc2)c1C	-	-	PBL	p24 / ELISA	10 µM	IIIB	6%
C[C@H]1[C@H](O)[C@@H](C)/C=C/C=C/C=C/C=C/C=C/C=C/C=C/[C@H](O[C@@H]2O[C@H](C)[C@@H](O)[C@H](N)[C@@H]2O)C[C@@H]2O[C@](O)(C[C@@H](O)C[C@@H](O)CC[C@H](O)[C@@H](O)C[C@@H](O)CC(=O)O[C@H]1C)C[C@H](O)[C@H]2C(=O)O	-	-	PBMC	p24 / RT activity	7 µM	93IN101 CLADE C R5 (NSI)	90%
COc1ccc(/C=N/N=C(\N)NO)c(OC)c1.Cc1ccc(S(=O)(=O)O)cc1	-	-	CEM	cytopathic effect	10 µg/mL	IIIB	0%
Nc1ccn([C@H]2CC[C@@H](CO)O2)c(=O)n1	-	-	MT-4	antigen	2 µM	IIIB	97%
CCc1cc(CCN2C(=O)c3ccccc3C2=O)c(=O)[nH]c1C	-	-	H9	p24	40 µM	IIIB	95%
O=c1[nH]c(=O)n([C@@H]2C[C@H](F)[C@@H](CO)O2)cc1CN1CCCCC1	-	-	MT-4	ELISA	100 µM	IIIB	0%
NCCSSCCN	-	-	Macrophage	p24	10 µM	BaL	37%
O=c1[nH]c(=O)n([C@@H]2C[C@H](F)[C@@H](CO)O2)cc1CN1CCOCC1	-	-	MT-4	ELISA	100 µM	IIIB	0%
O=S(=O)(O)c1ccc(-c2c3nc(c(-c4ccc(S(=O)(=O)O)cc4)c4ccc([nH]4)c(-c4ccc(S(=O)(=O)O)cc4)c4nc(c(-c5ccccc5)c5ccc2[nH]5)C=C4)C=C3)cc1	-	-	MAGI	β-galactosidase	0.5 µg/mL	IIIB	50%
O=c1oc2cc(O)cc(O)c2c(O)c1-c1coc2c1c(=O)oc1cc(O)cc(O)c12	-	-	MT-4	MTT	0.01 µM	IIIB	50%
CCCCCCC(=O)CCCCCCC(=O)O	-	-	CEM	cytopathic effect	3 µg/mL	-	5%
Cc1cc(C)cc(C[C@@H]2[C@H](O)[C@@H](O)[C@@H](Cc3ccccc3)N(Cc3ccc4[nH]nc(N)c4c3)C(=O)N2Cc2ccccc2)c1	-	-	-	-	0.05 µM	RF	90%
C[C@H]1O[C@H](O[C@@]23C(=O)[C@@H](O)[C@](C)(O)C[C@]2(O)C=CC2=C3C(=O)c3cccc(O)c3C2=O)CC[C@H]1O	-	-	MT-4	plaque count	0.1 µg/mL	LAV	20%
CCOC(=O)c1cn2c(c1O)C(=O)N(Cc1ccc(F)c(Cl)c1)CC2	-	-	MT-4	p24 / ELISA	0.94 µM	IIIB	>95%
CCCCCCCCCCCC(=O)CC(=O)O	-	-	CEM	cytopathic effect	10 µg/mL	-	7%
COC(=O)c1cn2c(c1C(=O)OC)Cc1ccccc1C2	-	-	PBL	p24 / ELISA	10 µM	IIIB	1%
C=CSC(NC(=O)[C@H](Cc1ccccc1)NS(=O)(=O)N1CCOCC1)C(=O)N[C@@H](CC1CCCCC1)[C@@H](O)C[C@H](C(=O)NCCCC)C(C)C	-	-	CEM	cytopathic effect / XTT	13 µM	IIIB	14%
COc1ccc(/C=N/N=C(\N)NO)c(Cl)c1O.Cc1ccc(S(=O)(=O)O)cc1	-	-	CEM	cytopathic effect	10 µg/mL	IIIB	96%
CC[C@@H](O)[C@]1(C)C[C@H](C)[C@@](O)([C@H]2C[C@H](C)[C@H]([C@]3(C)CC[C@H]([C@@H]4CC[C@@]5(O[C@H]([C@@H](C)[C@@H](OC)[C@H](C)C(=O)O)[C@H](C)[C@@H](OC)[C@H]5C)O4)O3)O2)O1	-	-	-	MTT / ELISA	10 µg/mL	-	100%
CCCCCCCCCCCCCCCC(=O)OCC(COC(=O)CCC(=O)OCC1CC(OP(=O)(O)OCC2CC(OP(=O)(O)OCC3CC(O)C(n4cnc5c(N)ncnc54)O3)C(n3cnc4c(N)ncnc43)O2)C(n2cnc3c(N)ncnc32)O1)OC(=O)CCCCCCCCCCCCCCC	-	-	SupT1 + Sup-T1	syncytia	300 µM	IIIB	99.2%
C[C@H]1CN(C(=O)c2ccccc2)CCN1C(=O)C(=O)c1c[nH]c2c(F)cccc12	-	-	HeLa + HELA CD4+/CCR5	luciferase	10 µM	-	96%
Cc1c(C)c2c(c(C)c1OC(=O)OC1CC(COP(=O)(O)OC3CC(COP(=O)(O)OC4CC(CO)OC4n4cnc5c(N)ncnc54)OC3n3cnc4c(N)ncnc43)OC1n1cnc3c(N)ncnc31)CCC(C)(CCCC(C)CCCC(C)CCCC(C)C)O2	-	-	SupT1 + Sup-T1	syncytia	300 µM	IIIB	98.3%
CN(C(=O)Cc1sccc1F)c1nc2c(s1)CCCC2	-	-	TZM-bl	luciferase	10 µM	NL4-3	94%
NCCCC(NC(=O)CCCCCCCCN=C(N)N)C(O)CCCCCCCCN=C(N)N	-	-	H9	RT activity	100 µg/mL	IIIB	70%
O=C(C(=O)N1CCN(C(=O)c2ccoc2)CC1)c1c[nH]c2cccc(F)c12	-	-	HeLa + HELA CD4+/CCR5	luciferase	10 µM	-	>98%
CC(=O)Oc1ccc(/C=C/S(=O)(=O)CCc2ccc(NC(=O)c3ccc([N+](=O)[O-])cc3)cc2)cc1OC(C)=O	-	-	TZM-bl	fluorescence	50 µM	BaL	<20%
COC(=O)CCC1=C(C)c2cc3[nH]c(cc4[nH]c(cc5nc(cc1n2)C(C)=C5CCC(=O)OC)c(C)c4CCC(=O)OC)c(CCC(=O)OC)c3C	-	-	MT-4	cytopathic effect	10 µg/mL	LAV	96.5%
COC1=C(Br)CC2(OC=C1Br)ON=C(C(=O)NCCCOc1c(Br)cc(CCN)cc1Br)[C@@H]2O	-	-	U1(HIV-1 (LAV)) + U1	p24	20 µM	LAV	45%
COC(=O)Cc1[nH]cc(-c2ccccc2)c1C(=O)OC	-	-	PBL	p24 / ELISA	10 µM	IIIB	14%
O=C(/C=C(\O)c1ncn[nH]1)c1ccc(Cc2ccc(F)cc2)o1	-	-	MT-4	-	0.74 µM	IIIB	90%
CCOC(=O)CCCCCCCCCC(=O)O	-	-	CEM	cytopathic effect	1 µg/mL	-	27%
COc1cc(CN2CCN(C[C@@H](O)[C@H](Cc3ccccc3)NC(=O)O[C@@H]3CCS(=O)(=O)[C@@H]3C(C)C)[C@H](C(=O)NC(C)(C)C)C2)cc2c1OCO2	-	-	MT-4	p24	0.025 µM	IIIB	95%
Nc1nc(NC2CC2)c2ncn([C@H]3C=C[C@@H](CO)C3)c2n1	-	RT-M184V	PBMC	p24	7 µM	XM-M184V	90%
CC1CN(C(=O)C(=O)c2c[nH]c3cccc(F)c23)CC(C)N1C(=O)c1ccccc1	-	-	HeLa + HELA CD4+/CCR5	luciferase	10 µM	-	97%
CNC(=O)c1cn2c(c1O)C(=O)N(Cc1ccc(Cl)cc1)CC2	-	-	MT-4	p24 / ELISA	2.5 µM	IIIB	>95%
CC(C)(C)NC(=O)[C@@H]1CCCN1C(=O)[C@@H](O)[C@H](Cc1ccccc1)NC(=O)[C@H](CC(N)=O)NC(=O)OCc1ccccc1	-	-	MOLT-4	RT activity	5 µM	pNL432	60%
O=C(C(=O)N1CCN(C(=O)c2ccccc2)CC1)c1c[nH]c2ccc(Cl)cc12	-	-	MT-2	RT activity	10 µM	BRU	95.8%
Cc1cn([C@H]2C[C@H](N=[N+]=[N-])[C@@H](CO)O2)c(=O)[nH]c1=O	-	-	PBMC	RT activity	0.045 µM	Ba-L (R5-tropic)	90%
Cc1cn([C@H]2CC[C@@H](CO)O2)c(=O)n(N)c1=O	-	-	CEM	cytopathic effect	100 µM	LAV	0%
Cc1cn([C@H]2C[C@H](N=[N+]=[N-])[C@@H](CO)O2)c(=O)[nH]c1=O	6 d	-	MT-4	RT activity	1 µM	NL4-3	100%
[C-]#[N+][C@H]1C[C@H](n2cc(C)c(=O)[nH]c2=O)O[C@@H]1CO	-	-	CEM	cytopathic effect	100 µM	LAV	0%
CN1CCN(Cc2cn([C@H]3C[C@H](F)[C@@H](CO)O3)c(=O)[nH]c2=O)CC1	-	-	MT-4	ELISA	100 µM	IIIB	0%
COc1ccc(C(=O)N2CCN(C(=O)C(=O)c3c[nH]c4cccc(F)c34)CC2)c(S)c1	-	-	HeLa + HELA CD4+/CCR5	luciferase	10 µM	-	81%
COc1cc(/C=N/N=C(\N)NO)c([N+](=O)[O-])cc1OC	-	-	CEM	cytopathic effect	10 µg/mL	IIIB	3%
COc1cccc2c1C(=O)c1c(O)c3c(c(O)c1C2=O)C[C@@](O)(C(=O)CO)C[C@@H]3O[C@H]1C[C@H](N)[C@@H](O)[C@H](C)O1	-	-	TZM-bl	GFP	1 µM	-	17%
CCC1=C(C)c2cc3nc(cc4cc(C)c(cc5[nH]c(cc1n2)c(C)c5CC)[nH]4)C(CCC(=O)O)=C3C	-	-	MT-4	cytopathic effect	10 µg/mL	LAV	97%
O=C(O)CCCCCCCCCCCn1ccnn1	-	-	CEM	cytopathic effect	1 µg/mL	-	19%
CCOC(=O)c1cn2c(c1O)C(=O)N(Cc1ccc(F)cc1)CC2	-	-	MT-4	p24 / ELISA	3.23 µM	IIIB	>95%